In patent US20140154248A1:

Biological target: human mesothelin (human) (UniProt Q13421)
Assay: cell-based or functional assay

Substance: SS1-LR
- EC50 (ng/ml), cytotoxicity WST-8, A431/K5 cells: 0.72 ng/mL
- EC50 (ng/ml), cytotoxicity WST-8, A1847 cells: 4.7 ng/mL
- EC50 (ng/ml), cytotoxicity WST-8, HAY cells: 1.05 ng/mL
- EC50 (ng/ml), cytotoxicity WST-8, KB31 cells: 9.34 ng/mL
- EC50 (ng/ml), cytotoxicity WST-8, L55 cells: 4.66 ng/mL
- EC50 (ng/ml), cytotoxicity WST-8, M30 cells: 3.23 ng/mL
- EC50 (ng/ml), cytotoxicity WST-8, NCI-H322M cells: 1.8 ng/mL
- EC50 (ng/ml), cytotoxicity WST-8, OVACR-8 cells: 4.13 ng/mL
- Relative Activity (SS1-LR against SS1P), A431/K5 cells: 0.24
- Relative Activity (SS1-LR against SS1P), A1847 cells: 0.98
- Relative Activity (SS1-LR against SS1P), HAY cells: 4.56
- Relative Activity (SS1-LR against SS1P), KB31 cells: 0.05
- Relative Activity (SS1-LR against SS1P), L55 cells: 1.14
- Relative Activity (SS1-LR against SS1P), M30 cells: 0.79
- Relative Activity (SS1-LR against SS1P), NCI-H322M cells: 0.35
- Relative Activity (SS1-LR against SS1P), OVACR-8 cells: 0.34
